Consider five compounds from patent US20260226034A1 (The Rockefeller University, priority 2023, published 2026).

Like-named read-outs stand apart in the source and are kept apart here.

The target in this test is NSP14 (Severe acute respiratory syndrome coronavirus 2, UniProt P0DTD1). As to the kind of experiment: NSP14 MTase inhibition assay at 37° C. (MTase-Glo SAH detection). To be noted: read-out: Nsp14 Mtase Inh. IC50, 0.3 nM NSP14, 2.5 μM SAM, 2.5 μM GpppA RNA.

On to `Cc1c(S(=O)(=O)c2cnc3c(cnn3C)c2)cc(C(=O)NCc2c(F)ccc3occc23)n1C`, for which the IC50 (as a rule, the concentration that gives 50% inhibition) (45 min at 37° C.) was found to be 98 nM.
Take `Cc1n[nH]c(C)c1CNC(=O)c1cc(S(=O)(=O)c2ccc3[nH]ncc3c2)c(C)n1C`: the IC50 (37° C.) was 7.6 nM.
Still for that read-out and setting: the value for `Cc1c(S(=O)(=O)c2ccc3[nH]ncc3c2)cc(C(=O)NCc2cccc3c2C(=O)NC3=O)n1C` was 0.68 nM.
As for `Cc1[nH]c(C(=O)NCc2c(F)ccc3occc23)cc1S(=O)(=O)c1ccc2c(cnn2C)c1`, the IC50 (45 min at 37° C.) is 90 nM.
Turning to `Cc1c(S(=O)(=O)c2ccc3[nH]ncc3c2)cc(C(=O)NCc2cccc3c2C(=O)N(C)C3=O)n1C`, the IC50 (37° C.) was 0.2 nM.
